The values below come from the supplement of paper PMC9931576.

Human monoclonal antibodies against the spike receptor-binding domain (heavy:light variable regions). IC50 against pseudoviruses bearing the spike of naturally observed variants; lower = stronger; >10 µg/ml means not reached at the top dose. No active / inactive call. The stated detection limit is 0.0005 µg/ml; values near or below 0.001 µg/ml lie at the floor of the assay.

Common to all, as to test: pseudovirus neutralization IC50; higher = weaker neutralization
The target of test [1] is SARS-CoV-2 Omicron BA.1 spike pseudovirus. The method, then:
(§1)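 Single-round VSV luciferase pseudovirus mixed with antibody dilutions for 1 h and put on Huh-7 cells for about a day; IC50 from the dose curve.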

Test [2] deals with SARS-CoV-2 Omicron BA.2 spike pseudovirus. The method, then:
as §1

For test [3], the target named is SARS-CoV-2 Omicron BA.2.75 spike pseudovirus. The method, then: as §1
In test [4] the target is SARS-CoV-2 Omicron BA.5 spike pseudovirus. Here is the method:
as §1

Test [5] addresses SARS-CoV-2 Omicron BQ.1.1 spike pseudovirus. The method, then:
as §1

In test [6] the target is SARS-CoV-2 Omicron XBB spike pseudovirus. Here is the method: as §1
Test [7] has as its target SARS-CoV-2 early D614G spike pseudovirus. Here is the method:
as §1

B1: BD57-059 (protein)
chain 1: QVHLVQSGAEVKPPGSSVKVSCKASGGTFITYGINWVRQAPGQGLEWMGRIIPILGIPDYAQKFQGRVTITADKPTSTAYMELSSLKSEDTAVYYCATLGQQPYNNYGLGHYYYMDVWGKGTTVTVSS
chain 2: DIQMTQSPSSLSASVGDRVTITCRASQGIDNWLAWYQQKPEGAPKSLIYDATSLQSGVPSRFSGSGSGTDFTLTISSLQPEDFATYYCQQYNSYPVTFGGGTKVEIK
Take B1: the “pseudovirus neutralization IC50” value is 0.0143 µg/mL in test [1]; 0.0177 µg/mL in test [2]; 0.00975 µg/mL in test [3]; 0.0872 µg/mL in test [4]; greater than 10 µg/mL in test [5]; greater than 10 µg/mL in test [6]. Further, the “pseudovirus neutralization IC50” value in test [7] worked out at 0.022 µg/mL.

B2: BD57-064 (protein)
chain 1: EVQLVESGGGLVQPGGSLRLSCAASGFTFSSYDMHWVRQTTGKGLEWVSAIGTAGDTYYPDSVKGRFTISRENAKNSLYLQLNRLTAGDTAVYYCARGGMYGSGTYDLVTWYFDLWGRGTPVTVSS
chain 2: DIQMTQSPSSLSASVGDRVTITCRASQSISRYLHWYQQKPGKAPKLLIYGASNLQSGVPSRFSGSGSGTDFTLTISGLQPEDFGTYYCQQSYTNPPITFGQGTRLEIK
For B2, the “pseudovirus neutralization IC50” value in test [1], in test [2], in test [3], in test [4], in test [5] and in test [6] was greater than 10 µg/mL each time. In test [7], the “pseudovirus neutralization IC50” value was greater than 10 µg/mL.

B3: BD57-068 (protein)
chain 1: EVQLVESGGGLVQSGRSLRLSCAASGFTFEDYAMHWVRQAPGKGLEWVSGISWNGGIIGYADSVKGRFIISRDNAKNSLYVQMYSLRVEDTALYYCAKAVDYGDYDGGFQHWGQGTLVTVSS
chain 2: QSALTQPASVSGSPGQSITISCTGSSSDVGGYNYVSWYQQHPGKAPKLTIYDVGKRPSGVSNRFSGSKSGNTASLTISGLQAEDEADYYCCSYTSSSSVVFGGGTKLTVL
As for B3, the “pseudovirus neutralization IC50” value was 0.145 µg/mL in test [1]; 0.156 µg/mL in test [2]; 0.095 µg/mL in test [3]; 1.25 µg/mL in test [4]; greater than 10 µg/mL in test [5]; greater than 10 µg/mL in test [6]. Also, the “pseudovirus neutralization IC50” value in test [7] was 0.0421 µg/mL.

B4: BD57-063 (protein)
chain 1: ELQLVDSGGGLVQPGRSLRLSCVASGFTFDEYAMHWVRQGPGKGLEWVSGISWNSGRIAYADSVKGRFTISRDNAENSLHLQMNSLRAEDTAFYYCAKGYCGGDCYSGLLDWYFDLWGRGTLVTVSS
chain 2: QSALTQPASVSGSPGQSITISCTGTSSDVGDYNYVSWYQQHPGKAPKLLIYDVNTRPSGVSNRFSGSKSGNTASLTISGLQAEDESDYFCSSYRSSSTLVFGGGTKLTVL
As to B4, the “pseudovirus neutralization IC50” value in test [1] was determined as 0.673 µg/mL; in test [2] it was 0.846 µg/mL; in test [3], 4.82 µg/mL; in test [4] it was 4.01 µg/mL; in test [5] it was 4.74 µg/mL; in test [6] it was 6.25 µg/mL. Also, the “pseudovirus neutralization IC50” value in test [7] is 0.736 µg/mL.

B5: BD57-056 (protein)
chain 1: EVQLVESGGGLVQPGRSLRLSCAASGFTFEDNAMHWVRQAPGKGLEWVSGISKHSAAIEYVDSVKGRFTISRDDAKNSLYLQMNRLRAEDTALYHCVKGSWDIAMVVSAAAPDYVLDMWGQGTMVTVSS
chain 2: DIQMTQSPSSLSASVGDRVTITCRASQSIGNYLNWYQQKPGKAPNLLIYAASNLQSGVASRFSGSGSGTDFTLSISGLQPEDFATYYCQQSYSTPLTFGGGTRVEIK
Turning to B5, the “pseudovirus neutralization IC50” value in test [1] was 0.00111 µg/mL; in test [2], 0.00125 µg/mL; in test [3], 0.00105 µg/mL; in test [4] it was 0.12 µg/mL; in test [5], 0.0756 µg/mL; in test [6] it was 0.171 µg/mL. The “pseudovirus neutralization IC50” value in test [7] worked out at 0.00303 µg/mL.

B6: BD57-052 (protein)
chain 1: QLQLQESGSGLVKPSQTLSLTCAVSGGSIRSVAYFWSWIRQPPGKGLEWIGDIFHTGDTYYNASLKSRITMSLDRSNNHFSLNLSSVTAADTAVYYCAARIVGAGDWFDPWGRGTLVSVSS
chain 2: SYVLTQPPSVSVAPGKTARITCGGNNIGSKSVHWYQQKPGQAPVLVIYYDSDRPSGIPERFSGSNSGNTATLTISRVEAGDEADYFCQMWDSSSDHNYVFGTGTKVTVL
On to B6, for which the “pseudovirus neutralization IC50” value in test [1] is 0.0955 µg/mL; in test [2] it was 0.0953 µg/mL; in test [3], 0.125 µg/mL; in test [4], greater than 10 µg/mL; in test [5], greater than 10 µg/mL; in test [6], 2.6 µg/mL. Also, the “pseudovirus neutralization IC50” value in test [7] was determined as 0.0249 µg/mL.

B7: BD57-060 (protein)
chain 1: EVQLVESGGGLVQPGRSLRLSCEASGFTFDDYAMHWVRQAPGKGLEWVSGTTYNSGTIGYADSVKGRFTISRDNAKNSLYLQINSLRPEDTALYHCAKDIYLGYSSGPEIYAFDIWGQGTMVTVSS
chain 2: SYVLTQSPSVSVAPGKTARITCGGNNIGSKSVHWYQQKPGQAPVLVVYDGGGRPSGIPERFSDSSSGNTATLTISRVEAGDEADYYCQVWDGSSDHVVFGGGTKLTVL
On to B7, for which the “pseudovirus neutralization IC50” value is 0.0938 µg/mL in test [1]; 0.0887 µg/mL in test [2]; 0.0704 µg/mL in test [3]; 0.241 µg/mL in test [4]; greater than 10 µg/mL in test [5]; greater than 10 µg/mL in test [6]. Also, in test [7], the “pseudovirus neutralization IC50” value was 0.0176 µg/mL.

B8: BD57-054 (protein)
chain 1: QVQLVQSGAEVRKPGSSVKVSCKASGGTFSSYAITWVRQAPGQGLEWMGRIIPMLGVAIFAQKFLDRVTLTADKSTDTAYMELTGLRYEDTAVYFCARDPRPIVVVAVPFGMDVWGQGTTVTVSS
chain 2: DIVMTQSPLSLSVTPGESASISCRSSESLLQSDGNNYLDWYLQKPGQSPQLLIYSGSVRASGVPDRISGSGSGTDFTLKISRVEAEDVGVYYCMQALQAPPYTFGQGTKLE
Regarding B8, the “pseudovirus neutralization IC50” value was 0.00687 µg/mL in test [1]; 0.00101 µg/mL in test [2]; 0.00634 µg/mL in test [3]; 5.49 µg/mL in test [4]; greater than 10 µg/mL in test [5]; greater than 10 µg/mL in test [6]. The “pseudovirus neutralization IC50” value in test [7] is 0.00335 µg/mL.

B9: BD57-051 (protein)
chain 1: QVQLVQSGAEVKKPGSSVKVSCKASGDTFSSTISWVRQAPGQGLEWMGRIIPMIDIVNYAQKFQGRVTITADKSTSTVYMEMSSLRSEDTAVYYCTRVFGYGELSYGMDVWGQGTTVTVSS
chain 2: DIQMTQSPSSLSASVGDRVTITCRASQTISRYLNWYQQKPGEAPKLLIYAASTLQSGVPSRFSGSGSGTDFTLTINSLQPEDFATYYCQQSYRMYTFGQGTKLDIK
For the molecule B9, the “pseudovirus neutralization IC50” value is 0.65 µg/mL in test [1]; 0.876 µg/mL in test [2]; 1.02 µg/mL in test [3]; 5.62 µg/mL in test [4]; greater than 10 µg/mL in test [5]; greater than 10 µg/mL in test [6]. In addition, the “pseudovirus neutralization IC50” value in test [7] worked out at 0.143 µg/mL.

B10: BD57-061 (protein)
chain 1: QVQLVQSGAEVKKPGASVKVSCKASGYTFISYHIHWVRQAPGQGLEWMGIINPSGGSTSYAQKFQGRVTMTRDTSTSTVYMEVSSLRSEDTAMYYCARSTYYSDSSGISWYYFDYWGQGTLVTVSS
chain 2: QSVLTQPPSVSGAPGQRVTISCTGSSSNIGAGYDVHWYQLLPGTAPKLLIYGNRNRPSGVPDRFSGSKSGTSASLAITGLQAEDEAAYYCQAYDSSLTGSVFGGGTKLTVL
Consider B10, for which the “pseudovirus neutralization IC50” value was 0.391 µg/mL in test [1]; 0.00438 µg/mL in test [2]; 0.343 µg/mL in test [3]; 0.0104 µg/mL in test [4]; 0.0116 µg/mL in test [5]; greater than 10 µg/mL in test [6]. The “pseudovirus neutralization IC50” value in test [7] came to 0.00152 µg/mL.

B11: BD57-070 (protein)
chain 1: QVQLQESGPGLVKPSQTLSLTCTVSGGSLSSGFYYWSWIRQPAGKGLEWIGRIYPTGSTNYNPSLKSRVTISIDMSRKHFSLKLSSVTAADTAVYYCARDRNPTILGVADDLPEVSWGQGTLVTVSS
chain 2: DIQMTQSPSSLSASVGDRVTITCQASQDIRDYLKWYQQKPGKAPNLLIYDASNLETGVPSRFSGSGSGTDFTFTISSLQPEDIATYYCQQYDDLVTFGGGTTVEIK
On to B11, for which the “pseudovirus neutralization IC50” value was 0.0489 µg/mL in test [1]; 0.0472 µg/mL in test [2]; 0.0467 µg/mL in test [3]; 7.19 µg/mL in test [4]; greater than 10 µg/mL in test [5]; greater than 10 µg/mL in test [6]. Further, the “pseudovirus neutralization IC50” value in test [7] amounted to 0.067 µg/mL.

B12: BD57-065 (protein)
chain 1: EVQLVESGGGLVQPGRSLRLSCAASGFTFDEYTIHWVRQAPGKGLEWVSGTSWNSGTIGYADSVMGRFTISRDNAKKSVYLQMNSLRPEDTALYYCTKAFWGGDCGGDCYGVDYWGQGTLVTVSS
chain 2: QSVLTQPPSVSGAPGQRVTISCTGSSSNIGADYAVHWYQQLPGTAPKLVIYDNTNRPSGVPDRFSGSKSGTSASLAITGLQAEDEADYYCQSYDSSLSGTVVFGGGTKLTVL
As to B12, the “pseudovirus neutralization IC50” value in test [1] was 0.0337 µg/mL; in test [2] it was 0.0364 µg/mL; in test [3], 0.0337 µg/mL; in test [4], 0.512 µg/mL; in test [5], greater than 10 µg/mL; in test [6], greater than 10 µg/mL. Also, in test [7], the “pseudovirus neutralization IC50” value was 0.0404 µg/mL.
